The exact form of at least one protein or probe is not confirmed. Tags and fusion partners may be left off the protein sequences shown.
Target: T1, CamA (Clostridioides difficile 630) (UniProt Q183J3)
T1 sequence (looked up): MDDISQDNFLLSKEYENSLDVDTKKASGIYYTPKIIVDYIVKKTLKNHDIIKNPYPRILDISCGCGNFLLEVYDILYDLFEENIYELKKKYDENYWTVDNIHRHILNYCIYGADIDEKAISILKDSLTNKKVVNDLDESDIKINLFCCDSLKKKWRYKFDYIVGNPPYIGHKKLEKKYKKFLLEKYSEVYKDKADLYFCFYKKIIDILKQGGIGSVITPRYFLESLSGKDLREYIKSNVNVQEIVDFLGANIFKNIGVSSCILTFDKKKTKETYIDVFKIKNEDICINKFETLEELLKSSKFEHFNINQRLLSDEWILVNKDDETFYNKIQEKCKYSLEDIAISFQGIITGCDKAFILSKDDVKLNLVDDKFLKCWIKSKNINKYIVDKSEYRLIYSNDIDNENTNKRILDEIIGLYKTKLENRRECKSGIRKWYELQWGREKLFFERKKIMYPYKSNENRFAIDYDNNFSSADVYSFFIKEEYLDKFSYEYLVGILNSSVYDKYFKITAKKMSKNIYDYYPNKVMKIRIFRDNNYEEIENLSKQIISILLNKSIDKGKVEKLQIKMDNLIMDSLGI
Assay: ITC
Conditions: ITC at 25 C: 200 uM DNA into 18-20 uM CamA, 20 mM HEPES pH 8.0, 0.5 mM TCEP, 5% glycerol, 150 or 250 mM NaCl (cofactor comparison at 250 mM NaCl), recombinant protein, residues 1-577, protein details: His-SUMO cleaved, leaves N-terminal His-Met

“CGATTCAAAAAGTCCCAAG (double strand) [substrate DNA 19 bp (CAAAAA)]” showed a Kd (150 mM NaCl, no cofactor) of 40 nM, a Kd (250 mM NaCl, 100 uM SAH) of 370 nM and a Kd (250 mM NaCl, 100 uM sinefungin) of 110 nM. It also gave a Kd (250 mM NaCl, no cofactor (repeats 0.20, 0.18, 0.20)) of 200 nM.

From publication PMC8187626, “Clostridioides difficile specific DNA adenine methyltransferase CamA squeezes and flips adenine out of DNA helix” (Nature Communications, 2021)
